Test [1] concerns the target Nicotinic acetylcholine receptor alpha6/alpha3/beta4 (Homo sapiens, UniProt P30926+P32297+Q15825). The conditions noted are these: oocyte.
Test [2] addresses Nicotinic acetylcholine receptor alpha6/alpha3/beta4 (Rattus norvegicus, UniProt P04757+P12392+P43143). The conditions noted are these: oocyte.

The chains behind the UniProt entries cited, without tags or fusion partners. Residues count along the entry.
UniProt P30926, 22-498 limits assumed: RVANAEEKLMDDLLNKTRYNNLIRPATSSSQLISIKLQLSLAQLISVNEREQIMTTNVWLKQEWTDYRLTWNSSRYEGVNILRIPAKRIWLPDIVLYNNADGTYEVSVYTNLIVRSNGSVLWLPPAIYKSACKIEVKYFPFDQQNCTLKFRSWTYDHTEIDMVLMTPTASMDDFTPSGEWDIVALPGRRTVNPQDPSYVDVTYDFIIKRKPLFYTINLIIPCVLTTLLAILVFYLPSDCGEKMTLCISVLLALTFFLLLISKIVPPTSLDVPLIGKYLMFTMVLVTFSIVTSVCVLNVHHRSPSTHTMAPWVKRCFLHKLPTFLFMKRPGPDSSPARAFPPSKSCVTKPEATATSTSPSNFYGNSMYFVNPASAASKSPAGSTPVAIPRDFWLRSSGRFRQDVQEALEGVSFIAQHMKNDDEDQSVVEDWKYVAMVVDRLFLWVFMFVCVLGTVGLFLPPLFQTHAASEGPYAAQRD
UniProt P32297, 32-505 limits assumed: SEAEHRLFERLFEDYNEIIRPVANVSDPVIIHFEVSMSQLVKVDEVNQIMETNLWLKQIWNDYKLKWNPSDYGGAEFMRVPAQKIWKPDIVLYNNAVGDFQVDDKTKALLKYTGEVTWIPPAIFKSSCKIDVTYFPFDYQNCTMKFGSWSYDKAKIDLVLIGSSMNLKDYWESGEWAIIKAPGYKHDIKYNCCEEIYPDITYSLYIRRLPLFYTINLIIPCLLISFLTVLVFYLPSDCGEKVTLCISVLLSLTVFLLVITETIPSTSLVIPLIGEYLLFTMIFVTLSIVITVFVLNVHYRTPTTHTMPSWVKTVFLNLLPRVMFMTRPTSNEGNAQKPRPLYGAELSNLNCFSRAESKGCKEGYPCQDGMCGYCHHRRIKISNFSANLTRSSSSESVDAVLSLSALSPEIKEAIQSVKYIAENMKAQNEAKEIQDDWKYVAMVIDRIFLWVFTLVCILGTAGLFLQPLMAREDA
UniProt Q15825, 26-494 limits assumed: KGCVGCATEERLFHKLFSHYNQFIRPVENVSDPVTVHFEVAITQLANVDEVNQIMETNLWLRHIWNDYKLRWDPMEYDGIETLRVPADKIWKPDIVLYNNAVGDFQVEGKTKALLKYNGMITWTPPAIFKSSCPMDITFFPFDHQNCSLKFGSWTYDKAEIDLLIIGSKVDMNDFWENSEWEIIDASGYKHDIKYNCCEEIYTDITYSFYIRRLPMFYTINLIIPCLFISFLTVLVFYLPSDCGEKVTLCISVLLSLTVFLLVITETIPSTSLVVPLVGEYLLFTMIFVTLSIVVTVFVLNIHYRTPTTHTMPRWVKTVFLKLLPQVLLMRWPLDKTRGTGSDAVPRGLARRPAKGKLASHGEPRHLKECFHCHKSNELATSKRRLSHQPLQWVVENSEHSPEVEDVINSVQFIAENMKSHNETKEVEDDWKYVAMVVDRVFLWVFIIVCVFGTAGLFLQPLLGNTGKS
UniProt P04757, 26-499 limits assumed: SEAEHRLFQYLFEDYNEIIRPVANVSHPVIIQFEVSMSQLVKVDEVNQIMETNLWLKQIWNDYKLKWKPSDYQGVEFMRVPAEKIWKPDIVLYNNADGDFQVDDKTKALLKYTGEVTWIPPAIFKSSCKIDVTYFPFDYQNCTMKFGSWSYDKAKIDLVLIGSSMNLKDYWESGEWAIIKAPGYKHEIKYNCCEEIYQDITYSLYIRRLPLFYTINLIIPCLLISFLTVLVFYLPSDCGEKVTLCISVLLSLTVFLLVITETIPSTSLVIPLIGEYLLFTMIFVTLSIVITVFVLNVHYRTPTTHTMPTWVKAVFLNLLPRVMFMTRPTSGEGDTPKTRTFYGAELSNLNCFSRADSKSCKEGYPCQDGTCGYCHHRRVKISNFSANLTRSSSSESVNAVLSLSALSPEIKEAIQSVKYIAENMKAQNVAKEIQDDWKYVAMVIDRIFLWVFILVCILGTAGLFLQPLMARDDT
UniProt P12392, 21-495 limits assumed: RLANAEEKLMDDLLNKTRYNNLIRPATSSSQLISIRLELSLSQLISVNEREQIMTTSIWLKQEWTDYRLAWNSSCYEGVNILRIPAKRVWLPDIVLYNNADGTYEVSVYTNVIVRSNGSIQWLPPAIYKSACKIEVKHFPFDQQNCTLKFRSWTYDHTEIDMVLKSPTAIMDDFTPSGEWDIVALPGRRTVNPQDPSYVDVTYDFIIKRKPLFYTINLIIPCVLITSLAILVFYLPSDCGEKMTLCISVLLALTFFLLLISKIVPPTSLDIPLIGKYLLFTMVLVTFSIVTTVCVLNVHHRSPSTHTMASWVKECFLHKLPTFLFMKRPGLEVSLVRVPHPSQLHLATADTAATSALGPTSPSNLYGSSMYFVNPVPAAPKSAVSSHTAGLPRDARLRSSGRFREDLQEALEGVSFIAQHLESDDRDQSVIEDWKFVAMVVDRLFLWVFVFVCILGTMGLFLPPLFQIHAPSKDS
UniProt P43143, 31-493 limits assumed: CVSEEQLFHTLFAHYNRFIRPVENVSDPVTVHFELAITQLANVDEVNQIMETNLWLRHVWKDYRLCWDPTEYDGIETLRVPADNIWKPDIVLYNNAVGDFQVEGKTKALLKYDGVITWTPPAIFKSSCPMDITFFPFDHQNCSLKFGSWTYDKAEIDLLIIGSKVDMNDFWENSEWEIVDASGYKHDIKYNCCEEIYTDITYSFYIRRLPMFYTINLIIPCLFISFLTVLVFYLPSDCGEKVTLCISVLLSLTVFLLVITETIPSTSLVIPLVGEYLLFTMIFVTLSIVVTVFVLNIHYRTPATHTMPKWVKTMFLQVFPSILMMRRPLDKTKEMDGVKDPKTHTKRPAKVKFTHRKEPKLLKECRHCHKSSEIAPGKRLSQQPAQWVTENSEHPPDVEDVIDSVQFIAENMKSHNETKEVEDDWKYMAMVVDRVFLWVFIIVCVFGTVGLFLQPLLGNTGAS

Molecules are shown by their SMILES. pIC50: −log10 of the molar value. A value given as a limit tells only on which side of the number the result lay.

`CC(C)C[C@@H]1NC(=O)[C@H](CCC(=O)O)NC(=O)[C@@H]2CCCN2C(=O)[C@H](Cc2cnc[nH]2)NC(=O)[C@H](CCCNC(=N)N)NC(=O)[C@H](C(C)C)NC(=O)[C@H](Cc2cnc[nH]2)NC(=O)[C@@H]2CSSC[C@H](NC(=O)CN)C(=O)N[C@@H](CSSC[C@@H](C(N)=O)NC1=O)C(=O)N[C@@H](CO)C(=O)N[C@@H](Cc1cnc[nH]1)C(=O)N1CCC[C@H]1C(=O)N[C@@H](C(C)C)C(=O)N2`: the pIC50 (usually the IC50 on a negative log10 scale, so that one unit is a factor of ten) was 9.62 in test [1] and 8.76 in test [2].

Consider `CC(C)C[C@@H]1NC(=O)[C@H](CCC(=O)O)NC(=O)[C@@H]2CCCN2C(=O)[C@H](Cc2cnc[nH]2)NC(=O)[C@H](CC(N)=O)NC(=O)[C@H](C(C)C)NC(=O)[C@H](CC(=O)O)NC(=O)[C@@H]2CSSC[C@H](NC(=O)CN)C(=O)N[C@@H](CSSC[C@@H](C(N)=O)NC1=O)C(=O)N[C@@H](CO)C(=O)N[C@@H](Cc1cnc[nH]1)C(=O)N1CCC[C@H]1C(=O)N[C@@H](C)C(=O)N2`, for which the pIC50 in test [1] was 5.85; in test [2] it was less than 5.00.

On to `CC(C)C[C@@H]1NC(=O)[C@H](CC(N)=O)NC(=O)[C@@H]2CCCN2C(=O)[C@H](Cc2cnc[nH]2)NC(=O)[C@H](CC(N)=O)NC(=O)[C@H](C(C)C)NC(=O)[C@H](CO)NC(=O)[C@@H]2CSSC[C@H](NC(=O)CN)C(=O)N[C@@H](CSSC[C@@H](C(N)=O)NC1=O)C(=O)N[C@@H](CO)C(=O)N[C@@H](Cc1cnc[nH]1)C(=O)N1CCC[C@H]1C(=O)N[C@@H](C)C(=O)N2`, for which the pIC50 was 7.79 in test [1] and 6.72 in test [2].

In the case of `CC[C@H](C)[C@@H]1NC(=O)[C@H](CCC(=O)O)NC(=O)[C@@H]2CCCN2C(=O)[C@H](Cc2cnc[nH]2)NC(=O)[C@H](CCCNC(=N)N)NC(=O)[C@H](C(C)C)NC(=O)[C@H](Cc2cnc[nH]2)NC(=O)[C@@H]2CSSC[C@H](NC(=O)CN)C(=O)N[C@@H](CSSC[C@@H](C(N)=O)NC1=O)C(=O)N[C@@H](CO)C(=O)N[C@@H](Cc1cnc[nH]1)C(=O)N1CCC[C@H]1C(=O)N[C@@H](C(C)C)C(=O)N2`, the pIC50 in test [1] is 9.39; in test [2], 8.52.

On to `CC(C)C[C@@H]1NC(=O)[C@H](CCC(=O)O)NC(=O)[C@@H]2CCCN2C(=O)[C@H](Cc2cnc[nH]2)NC(=O)[C@H](CC(N)=O)NC(=O)[C@H](C(C)C)NC(=O)[C@H](CO)NC(=O)[C@@H]2CSSC[C@H](NC(=O)CN)C(=O)N[C@@H](CSSC[C@@H](C(N)=O)NC1=O)C(=O)N[C@@H](CO)C(=O)N[C@@H](C)C(=O)N1CCC[C@H]1C(=O)N[C@@H](C)C(=O)N2`, for which the results for the pIC50 in test [1] and in test [2] were 5.12 and less than 5.00, respectively.

On to `CC(C)C[C@@H]1NC(=O)[C@H](CCC(=O)O)NC(=O)[C@@H]2CCCN2C(=O)[C@H](Cc2cnc[nH]2)NC(=O)[C@H](CC(N)=O)NC(=O)[C@H](C(C)C)NC(=O)[C@H](C)NC(=O)[C@@H]2CSSC[C@H](NC(=O)CN)C(=O)N[C@@H](CSSC[C@@H](C(N)=O)NC1=O)C(=O)N[C@@H](CO)C(=O)N[C@@H](Cc1cnc[nH]1)C(=O)N1CCC[C@H]1C(=O)N[C@@H](C)C(=O)N2`, for which the values for the negative logarithm of the IC50 (pIC50) in test [1] and in test [2] were 7.22 and 6.40, respectively.

With `CC(C)C[C@@H]1NC(=O)[C@H](CC(=O)O)NC(=O)[C@@H]2CCCN2C(=O)[C@H](Cc2cnc[nH]2)NC(=O)[C@H](CC(N)=O)NC(=O)[C@H](C(C)C)NC(=O)[C@H](CO)NC(=O)[C@@H]2CSSC[C@H](NC(=O)CN)C(=O)N[C@@H](CSSC[C@@H](C(N)=O)NC1=O)C(=O)N[C@@H](CO)C(=O)N[C@@H](Cc1cnc[nH]1)C(=O)N1CCC[C@H]1C(=O)N[C@@H](C)C(=O)N2`, the negative-log IC50 (pIC50) in test [1] is 7.89; in test [2], 6.32.

`CC(C)C[C@@H]1NC(=O)[C@H](CCC(=O)O)NC(=O)[C@@H]2CCCN2C(=O)[C@H](Cc2cnc[nH]2)NC(=O)[C@H](CC(N)=O)NC(=O)[C@H](C(C)C)NC(=O)[C@H](CO)NC(=O)[C@@H]2CSSC[C@H](NC(=O)CN)C(=O)N[C@@H](CSSC[C@@H](C(N)=O)NC1=O)C(=O)N[C@@H](CO)C(=O)N[C@@H](Cc1cnc[nH]1)C(=O)N[C@@H](C)C(=O)N[C@@H](C)C(=O)N2`: the negative-log IC50 (pIC50) was 5.72 in test [1] and less than 5.00 in test [2].

For the compound `CCCC[C@@H]1NC(=O)[C@H](CO)NC(=O)[C@@H]2CSSC[C@H](NC(=O)CN)C(=O)N[C@@H](CSSC[C@@H](C(N)=O)NC(=O)[C@H](CC(C)C)NC(=O)[C@H](CCC(=O)O)NC(=O)[C@@H]3CCCN3C(=O)[C@H](Cc3cnc[nH]3)NC(=O)[C@H](CC(N)=O)NC1=O)C(=O)N[C@@H](CO)C(=O)N[C@@H](Cc1cnc[nH]1)C(=O)N1CCC[C@H]1C(=O)N[C@@H](C)C(=O)N2`, the pIC50 in test [1] is 7.87; in test [2], 6.30.

On to `CC(C)[C@@H]1NC(=O)[C@H](CO)NC(=O)[C@@H]2CSSC[C@H](NC(=O)CN)C(=O)N[C@@H](CSSC[C@@H](C(N)=O)NC(=O)[C@H](C)NC(=O)[C@H](CCC(=O)O)NC(=O)[C@@H]3CCCN3C(=O)[C@H](Cc3cnc[nH]3)NC(=O)[C@H](CC(N)=O)NC1=O)C(=O)N[C@@H](CO)C(=O)N[C@@H](Cc1cnc[nH]1)C(=O)N1CCC[C@H]1C(=O)N[C@@H](C)C(=O)N2`, for which the pIC50 in test [1] is 7.05; in test [2] it was 6.63.

For `CCCC[C@@H]1NC(=O)[C@H](CCC(=O)O)NC(=O)[C@@H]2CCCN2C(=O)[C@H](Cc2cnc[nH]2)NC(=O)[C@H](CC(N)=O)NC(=O)[C@H](C(C)C)NC(=O)[C@H](CO)NC(=O)[C@@H]2CSSC[C@H](NC(=O)CN)C(=O)N[C@@H](CSSC[C@@H](C(N)=O)NC1=O)C(=O)N[C@@H](CO)C(=O)N[C@@H](Cc1cnc[nH]1)C(=O)N1CCC[C@H]1C(=O)N[C@@H](C)C(=O)N2`, the figures for the pIC50 in test [1] and in test [2] were 7.68 and 6.55, respectively.

Take `CC(C)C[C@@H]1NC(=O)[C@H](CCC(=O)O)NC(=O)[C@@H]2CCCN2C(=O)[C@H](Cc2cnc[nH]2)NC(=O)[C@H](CC(=O)O)NC(=O)[C@H](C(C)C)NC(=O)[C@H](CO)NC(=O)[C@@H]2CSSC[C@H](NC(=O)CN)C(=O)N[C@@H](CSSC[C@@H](C(N)=O)NC1=O)C(=O)N[C@@H](CO)C(=O)N[C@@H](Cc1cnc[nH]1)C(=O)N1CCC[C@H]1C(=O)N[C@@H](C)C(=O)N2`: the negative-log IC50 (pIC50) in test [1] is 6.91; in test [2] it was 5.18.

Consider `CC(C)C[C@@H]1NC(=O)[C@H](CCCNC(=N)N)NC(=O)[C@@H]2CCCN2C(=O)[C@H](Cc2cnc[nH]2)NC(=O)[C@H](CC(N)=O)NC(=O)[C@H](C(C)C)NC(=O)[C@H](CO)NC(=O)[C@@H]2CSSC[C@H](NC(=O)CN)C(=O)N[C@@H](CSSC[C@@H](C(N)=O)NC1=O)C(=O)N[C@@H](CO)C(=O)N[C@@H](Cc1cnc[nH]1)C(=O)N1CCC[C@H]1C(=O)N[C@@H](C)C(=O)N2`, for which the pIC50 in test [1] was 7.31; in test [2] it was 5.98.

For `CC(C)C[C@@H]1NC(=O)[C@H](CCC(=O)O)NC(=O)[C@@H]2CCCN2C(=O)[C@H](Cc2cnc[nH]2)NC(=O)[C@H](CCC(=O)O)NC(=O)[C@H](C(C)C)NC(=O)[C@H](CO)NC(=O)[C@@H]2CSSC[C@H](NC(=O)CN)C(=O)N[C@@H](CSSC[C@@H](C(N)=O)NC1=O)C(=O)N[C@@H](CO)C(=O)N[C@@H](Cc1cnc[nH]1)C(=O)N1CCC[C@H]1C(=O)N[C@@H](C)C(=O)N2`, the pIC50 is 7.15 in test [1] and 5.63 in test [2].

For the compound `CC(C)C[C@@H]1NC(=O)[C@H](CCC(=O)O)NC(=O)[C@@H]2CCCN2C(=O)[C@H](Cc2cnc[nH]2)NC(=O)[C@H](CC(N)=O)NC(=O)[C@H](C(C)C)NC(=O)[C@H]([C@@H](C)O)NC(=O)[C@@H]2CSSC[C@H](NC(=O)CN)C(=O)N[C@@H](CSSC[C@@H](C(N)=O)NC1=O)C(=O)N[C@@H](CO)C(=O)N[C@@H](Cc1cnc[nH]1)C(=O)N1CCC[C@H]1C(=O)N[C@@H](C)C(=O)N2`, the pIC50 in test [1] was 8.70; in test [2], 7.02.

Consider `CC(C)C[C@@H]1NC(=O)[C@H](CCC(=O)O)NC(=O)[C@@H]2CCCN2C(=O)[C@H](Cc2cnc[nH]2)NC(=O)[C@H](CC(N)=O)NC(=O)[C@H](C(C)C)NC(=O)[C@H](CO)NC(=O)[C@@H]2CSSC[C@H](NC(=O)CN)C(=O)N[C@@H](CSSC[C@@H](C(N)=O)NC1=O)C(=O)N[C@@H](CO)C(=O)N[C@@H](CC(N)=O)C(=O)N1CCC[C@H]1C(=O)N[C@@H](C)C(=O)N2`, for which the pIC50 in test [1] was 7.53; in test [2], 7.19.

Take `CC(C)C[C@@H]1NC(=O)[C@H](CCC(=O)O)NC(=O)[C@@H]2CCCN2C(=O)[C@H](Cc2cnc[nH]2)NC(=O)[C@H](CC(N)=O)NC(=O)[C@H](CCCNC(=N)N)NC(=O)[C@H](CO)NC(=O)[C@@H]2CSSC[C@H](NC(=O)CN)C(=O)N[C@@H](CSSC[C@@H](C(N)=O)NC1=O)C(=O)N[C@@H](CO)C(=O)N[C@@H](Cc1cnc[nH]1)C(=O)N1CCC[C@H]1C(=O)N[C@@H](C)C(=O)N2`: the results for the negative-log IC50 (pIC50) in test [1] and in test [2] were 6.57 and 5.67, respectively.

Consider `CC(C)C[C@@H]1NC(=O)[C@H](CCC(=O)O)NC(=O)[C@@H]2CCCN2C(=O)[C@H](Cc2cnc[nH]2)NC(=O)[C@H](CCCCN)NC(=O)[C@H](C(C)C)NC(=O)[C@H](CO)NC(=O)[C@@H]2CSSC[C@H](NC(=O)CN)C(=O)N[C@@H](CSSC[C@@H](C(N)=O)NC1=O)C(=O)N[C@@H](CO)C(=O)N[C@@H](Cc1cnc[nH]1)C(=O)N1CCC[C@H]1C(=O)N[C@@H](C)C(=O)N2`, for which the pIC50 in test [1] was 8.84; in test [2], 7.35.

On to `CC[C@H](C)[C@@H]1NC(=O)[C@H](CO)NC(=O)[C@@H]2CSSC[C@H](NC(=O)CN)C(=O)N[C@@H](CSSC[C@@H](C(N)=O)NC(=O)[C@H](CC(C)C)NC(=O)[C@H](CCC(=O)O)NC(=O)[C@@H]3CCCN3C(=O)[C@H](Cc3cnc[nH]3)NC(=O)[C@H](CC(N)=O)NC1=O)C(=O)N[C@@H](CO)C(=O)N[C@@H](Cc1cnc[nH]1)C(=O)N1CCC[C@H]1C(=O)N[C@@H](C)C(=O)N2`, for which the pIC50 was 8.03 in test [1] and 6.51 in test [2].

Take `CC(C)C[C@@H]1NC(=O)[C@H](CCC(=O)O)NC(=O)[C@@H]2CCCN2C(=O)[C@H](Cc2cnc[nH]2)NC(=O)[C@H](CC(N)=O)NC(=O)[C@H](C(C)C)NC(=O)[C@H](CO)NC(=O)[C@@H]2CSSC[C@H](NC(=O)CN)C(=O)N[C@@H](CSSC[C@@H](C(N)=O)NC1=O)C(=O)N[C@@H](C)C(=O)N[C@@H](Cc1cnc[nH]1)C(=O)N1CCC[C@H]1C(=O)N[C@@H](C)C(=O)N2`: the negative-log IC50 (pIC50) in test [1] is 7.66; in test [2], 6.76.

The values are drawn from ChEMBL document CHEMBL4811225 (J Med Chem, 2021).
